This note sets out measurements from patent US20180002366A1, “4'-SUBSTITUTED NUCLEOSIDE REVERSE TRANSCRIPTASE INHIBITORS” (MERCK SHARP & DOHME CORP., priority 2014, published 2018).

The data set concerns HIV-1 (H9IIIB virus) replication in MT4-GFP cells. The experiment in a line: Antiviral Persistence assay. Particulars: ratio of IC50 72 h to IC50 24 h. On the procedure: HIV-1 replication was monitored using MT4-gag-GFP clone D3 (hereafter designate MT4-GFP), which are MT-4 cells modified to harbor a GFP reporter gene, the expression of which is dependent on the HIV-1 expressed proteins tat and rev. Productive infection of an MT4-GFP cell with HIV-1 results in GFP expression approximately 24 h post-infection. MT4-GFP cells were maintained at 37° C./5% CO2/90% relative humidity in RPMI 1640 supplemented with 10% fetal bovine serum, 100 U/mL penicillin/streptomycin, and 400 μg/mL G418 to maintain the reporter gene. For 72 hour time point persistence assay (72 h plate) and 24 hour time point control assay (24 h plate), MT4-GFP cells were washed and re-suspended in RPMI 1640 containing 10% normal human serum at either 1.6×10^5 or 2.4×10^5 cells/mL (10% NHS). Compound plates were prepared by dispensing compounds dissolved in DMSO into wells of 384 well cell culture plates ([…]) using an ECHO acoustic dispenser. Each compound was tested in a 10 point serial 3-fold dilution (typical final concentrations: 4.2 μM-0.21 nM). […]
Infected cells were quantified at ˜24 h post-infection, by counting the number of green cells in each well using an Acumen eX3 scanner. IC50s for the compounds in Table 4 were determined by non-linear 4-parameter curve fitting. […]

Regarding “(2R,3S,5R)-5-(4-aminopyrrolo[2,1-f][1,2,4]triazin-7-yl)-3-hydroxy-2-(hydroxymethyl)tetrahydrofuran-2-carbonitrile [Example 12]”, the “Fold shift IC50 72 h/24 h” value worked out at 28.
